Pooled drug test results. Numbers come from NIAID ChemDB, via PubChem.

Common to all: tests in culture; species: Candida albicans

ECn is the concentration giving n% inhibition of infection, replication or growth.

| smiles | strain or isolate | read by | read-out | result |
|---|---|---|---|---|
| COC(=O)Nc1ccc2c(c1)nc(-c1ccccc1)n2O |  | broth dilution | MIC | 200 µg/mL |
| CCN1CCN(c2nc(NC(=S)N3CCN(C)CC3)nc3ccccc23)CC1 | MTCC 183 | agar / visual reading | MIC | 25 µg/mL |
| Clc1ccc2nnc3c4ccccc4[nH]c3c2c1 |  |  | MIC | 12 µM |
| CCOC(=O)/C(=C1/SCCC(C)S1)n1ccnc1 |  |  | MIC | >100 µg/mL |
| c1ccc(Nc2nnc(-c3cn4ccccc4n3)o2)cc1 | ATCC 10231 | broth dilution | MIC | 32 µg/mL |
| C=CCc1ccc(OC)c(OC)c1 | 3068 | turbidity | MIC90 | 345 µg/mL |
| Clc1ccc(OCCC(Cn2ccnc2)c2ccc(Cl)cc2Cl)cc1 |  |  | MIC | 10 µg/mL |
| CCCCCCCCCCCCCC(O)CC(O)C(N)CC(=O)CC(C)C(N)C(=O)NC(C=O)CO |  |  | MIC | 3.12 µg/mL |
| OC(Cn1cncn1)(Cn1cncn1)c1ccc(F)cc1F | 2453 strains |  | MIC90 | 0.5 µg/mL |
| CCN1CCN(c2nc(NN=C3SCC(=O)N3c3ccccc3)nc3ccccc23)CC1 | MTCC 183 | agar / visual reading | MIC | 12.5 µg/mL |
| O=C(Nc1ccccc1)OCc1cc(-c2ccccn2)no1 |  | broth dilution | MIC | 200 µg/mL |
| CCC(C)CC(C)CCCCCCCCC(=O)N[C@H]1C[C@@H](O)[C@H](NCCN)NC(=O)[C@@H]2[C@@H](O)CCN2C(=O)[C@H]([C@H](O)CCN)NC(=O)[C@H]([C@H](O)[C@@H](O)c2ccc(O)cc2)NC(=O)[C@@H]2C[C@@H](O)CN2C(=O)[C@H]([C@@H](C)O)NC1=O | 10920 | broth dilution | MIC | 0.015 µg/mL |
| COc1ccc2[nH]c3c4ccccc4nnc3c2c1 |  |  | MIC | >200 µM |
| COc1ccccc1C1C(C#N)=C(N)OC2=C1CSc1ccccc12 |  |  | MIC | 50 µg/mL |
| O/N=C(\c1ccccc1)c1oc2ccc(Cl)cc2c1Cn1cncn1 | Clinical isolate |  | MIC | 25 µg/mL |
| CCN1C(=O)CS/C1=N/NC(=O)c1cn2ccccc2n1 | ATCC 10231 | broth dilution | MIC | 64 µg/mL |
| CCC(C)CC(C)CCCCCCCCC(=O)N[C@H]1C[C@@H](O)[C@H](NCCN)NC(=O)[C@@H]2[C@@H](O)CCN2C(=O)[C@H]([C@H](O)CCN)NC(=O)[C@H]([C@H](O)[C@@H](O)c2ccc(O)cc2)NC(=O)[C@@H]2C[C@@H](O)CN2C(=O)[C@H]([C@@H](C)O)NC1=O | M61 | broth dilution | MIC | 0.06 µg/mL |
| CC1CCS/C(=C(/C#N)n2ccnc2)S1 |  |  | MIC | 50 µg/mL |
| CCC(C)n1ncn(-c2ccc(N3CCN(c4ccc(OC[C@H]5CO[C@](Cn6cncn6)(c6ccc(Cl)cc6Cl)O5)cc4)CC3)cc2)c1=O | Isolate CA-11 |  | MIC | >8 µg/mL |
| Clc1ccc(OCCC(Cn2ccnc2)c2ccc(Cl)cc2Cl)c(Cl)c1 |  |  | MIC | 100 µg/mL |
| C[C@@H](B1OC2CC3CC(C3(C)C)[C@@]2(C)O1)[C@@H](Cc1ccccc1)NC(=O)[C@H](Cc1ccccc1)NC(=O)[C@@H](N)CCCCN |  |  | MIC | ≤500 µg/mL |
| N/C(=N\N=C(/Cn1cncn1)c1ccccc1)c1ccccn1 | Isolate 685 |  | MIC | 64 µg/mL |
| C[C@@H](NC(=O)[C@@H](N)CCCCN)[C@@H](Cc1ccccc1)B1OC2CC3CC(C3(C)C)[C@@]2(C)O1 |  |  | MIC | ≤500 µg/mL |
| COC(=O)N1CCOc2ccc([N+](=O)[O-])cc21 |  | broth dilution | MIC | 320 µg/mL |
| N#CC1=C(N)OC2=C(CSc3ccccc32)C1c1ccc(-c2ccccc2)cc1 |  |  | MIC | 50 µg/mL |
| Cc1c(/C(=N/O)c2ccccc2)oc2ccc(Cl)cc12 | Clinical isolate |  | MIC | 12.5 µg/mL |
| COc1ccc(OCCCC(Cn2ccnc2)c2ccc(Cl)cc2Cl)cc1 |  |  | MIC | 10 µg/mL |
| COC(=O)Nc1ccc(NC(=O)OCc2cc(-c3cccc(Br)c3)no2)cc1 |  | broth dilution | MIC | 320 µg/mL |
| N/C(=N\N=C(/Cn1ccnc1)c1ccc(Cl)cc1)c1ccccn1 | Isolate 685 |  | MIC | 0.125 µg/mL |
| CC[C@@H]([C@H](C)O)n1ncn(-c2ccc(N3CCN(c4ccc(OC[C@@H]5CO[C@@](Cn6cncn6)(c6ccc(F)cc6F)C5)cc4)CC3)cc2)c1=O | M61 | broth dilution | MIC | <0.001 µg/mL |
| CC1(C)C2CC3OB(C[C@@H](CCc4ccccc4)NC(=O)[C@@H](N)CCCCN)O[C@]3(C)C1C2 |  | agar | MIC | ≤500 µg/mL |
| O=C(c1ccccc1)c1oc2ccc(Cl)cc2c1Cn1cncn1 | NRRL Y-27077 |  | MIC | 25 µg/mL |
| CC(C)N=C(N)c1ccc2nc(-c3ccc4c(c3)Cc3cc(-c5nc6ccc(C(N)=NC(C)C)cc6[nH]5)ccc3-4)[nH]c2c1 | Isolate 2281 |  | MFC | 6.25 µg/mL |
| O=C(N=Nc1c(O)[nH]c2cccc(Cl)c12)Nc1ccc(Br)cc1 |  |  | MIC | 1.56 µg/mL |
| COc1ccc(-c2c(C#N)c(OC)nc3c2CSc2ccc(Cl)cc2-3)cc1O |  |  | MIC | 100 µg/mL |
| NS(=O)(=O)c1ccc(NC(=O)N=Nc2c(O)[nH]c3cc(Cl)ccc23)cc1 |  |  | MIC | >1.56 µg/mL |
| Fc1ccc(Nc2nnc(-c3cn4ccccc4n3)o2)cc1 | ATCC 10231 | broth dilution | MIC | 32 µg/mL |
| C[C@H]1[C@H](O)[C@@H](C)/C=C/C=C/C=C/C=C/C=C/C=C/C=C/[C@H](O[C@@H]2O[C@H](C)[C@@H](O)[C@H](N)[C@@H]2O)C[C@@H]2O[C@](O)(C[C@@H](O)C[C@@H](O)CC[C@H](O)[C@@H](O)C[C@@H](O)CC(=O)O[C@H]1C)C[C@H](O)[C@H]2C(=O)O | ATCC 10261 | broth dilution / turbidity | MFC | 0.7 µg/mL |
| O=C(COc1ccc(Br)cc1)N=Nc1c(O)[nH]c2cccc(Cl)c12 |  |  | MIC | >1.56 µg/mL |
| Cc1c(C(=O)c2ccc(Cl)cc2)oc2ccc(Cl)cc12 | Clinical isolate |  | MIC | 25 µg/mL |
| Clc1ccc(C(COc2ccccc2Cl)Cn2ccnc2)cc1 |  |  | MIC | 100 µg/mL |
| C=C1CC[C@@H]2C[C@H]1C2(C)C.C[C@@H]1[C@H](O)[C@@H](C)/C=C/C=C/C=C/C=C/C=C/C=C/C=C/[C@H](O[C@@H]2O[C@H](C)[C@@H](O)[C@H](N)[C@@H]2O)C[C@@H]2O[C@](O)(C[C@@H](O)C[C@@H](O)[C@H](O)CC[C@@H](O)C[C@@H](O)CC(=O)O[C@H]1C)C[C@H](O)[C@H]2C(=O)O | ATCC 10231 | broth dilution | MIC | 187 µg/mL |
| N/C(=N\N=C(/Cn1ccnc1)c1ccc(-c2ccccc2)cc1)c1ccccn1 | Isolate 685 |  | MIC | 0.25 µg/mL |
| CN(C)C(=S)SCC(O)(Cn1cncn1)c1ccc(F)cc1F | Y0109 | broth dilution | MIC | ≤0.0125 µg/mL |
| COc1ccc2c(C)c(/C(=N/O)c3ccccc3)oc2c1 | Clinical isolate |  | MIC | 12.5 µg/mL |
| O=C(COc1ccccc1)N=Nc1c(O)[nH]c2cc(Cl)ccc12 |  |  | MIC | >1.56 µg/mL |
| CC1OC(OC2CCC(c3ccc4c(c3O)C(=O)C3=C(C4=O)[C@@]4(O)C(=O)C[C@](C)(OC5C=CC(=O)C(C)O5)C[C@@]4(O)C=C3)OC2C)C=CC1=O | 6 strains |  | MIC | ≥43 µg/mL |
| c1ccc2c(c1)nnc1c3ccccc3[nH]c21 |  |  | MIC | 150 µM |
| COc1ccccc1-c1c(C#N)c(OC)nc2c1CSc1ccc(Cl)cc1-2 |  |  | MIC | 25 µg/mL |
| CC[C@@H]([C@H](C)O)n1ncn(-c2ccc(N3CCN(c4ccc(OC[C@@H]5CO[C@@](Cn6cncn6)(c6ccc(F)cc6F)C5)cc4)CC3)cc2)c1=O | 160 strains |  | MIC | 0.12 µg/mL |
| CC1(C)C2CC3OB(C[C@@H](Cc4ccccc4)NC(=O)[C@@H](N)Cc4ccccc4)O[C@]3(C)C1C2 |  |  | MIC | ≤500 µg/mL |
| N#CC1=C(N)OC2=C(CSc3ccc(Cl)cc32)C1c1ccc2c(c1)OCO2 |  |  | MIC | 25 µg/mL |
| C[C@H]1[C@H](O)[C@@H](C)/C=C/C=C/C=C/C=C/C=C/C=C/C=C/[C@H](O[C@@H]2O[C@H](C)[C@@H](O)[C@H](N)[C@@H]2O)C[C@@H]2O[C@](O)(C[C@@H](O)C[C@@H](O)CC[C@H](O)[C@@H](O)C[C@@H](O)CC(=O)O[C@H]1C)C[C@H](O)[C@H]2C(=O)O | ATCC 10231 | broth dilution | MIC | 0.5 µg/mL |
| Cc1ccc(-c2c3c(N)c4c(nc3nc3c2c(C)nn3-c2ccccc2)CCC4)cc1 | CCC 127 | broth dilution / absorbance | MIC80 | 31.2 µg/mL |
| N/C(=N\N=C(/Cn1cncn1)c1ccc(Cl)cc1)c1ccccn1 | Isolate 685 |  | MIC | 2 µg/mL |
| CC(N1CCN(c2ccc(-n3cnn(Cc4ccc(C(F)(F)F)cc4)c3=O)cc2F)CC1)C(O)(Cn1cncn1)c1ccc(F)cc1F | Y0109 |  | MIC | <0.048 µg/mL |
| CC[C@@H]([C@H](C)O)n1ncn(-c2ccc(N3CCN(c4ccc(OC[C@@H]5CO[C@@](Cn6cncn6)(c6ccc(F)cc6F)C5)cc4)CC3)cc2)c1=O | Isolate CA-5 |  | MIC | >4 µg/mL |
| N/C(=N\N=C(/Cn1ccnc1)c1ccc(Br)cc1)c1ccccn1 | Isolate 685 |  | MIC | 0.125 µg/mL |
| Cc1ccc2oc(/C(=N/O)c3ccc(Cl)cc3)c(C)c2c1 | Clinical isolate |  | MIC | 12.5 µg/mL |
| O=C(NNC(=S)Nc1ccc(Cl)cc1)c1cn2ccccc2n1 | ATCC 10231 | broth dilution | MIC | 32 µg/mL |
| Cc1c(C(=O)c2ccc(Cl)cc2)oc2ccccc12 | NRRL Y-27077 |  | MIC | 25 µg/mL |
| COc1ccc(-c2c(C#N)c(OC)nc3c2CSc2ccccc2-3)cc1OC |  |  | MIC | 25 µg/mL |
| Cc1ccc(NC(=S)NNC(=O)c2cn3ccccc3n2)cc1 | ATCC 10231 | broth dilution | MIC | 64 µg/mL |
| O=C(c1ccccc1)c1oc2ccc(Cl)cc2c1Cn1ccnc1 | NRRL Y-27077 |  | MIC | 25 µg/mL |
| C=C(CCC=C(C)C)[C@@H]1CC[C@@]2(C)O[C@H]2C1 | ATCC 90028 |  | EC50 | >50 µg/mL |
| O=C(NNC(=S)Nc1ccc(F)cc1)c1cn2ccccc2n1 | ATCC 10231 | broth dilution | MIC | 64 µg/mL |
| CC(C)C1=C[C@H]2C[C@]3(C=O)[C@@H]4CC[C@@H](C)[C@H]4C[C@@]2(CO[C@H]2C[C@@H]4OC(C)(C)O[C@@H]4[C@@H](C)O2)[C@]13C(=O)O | 2005E |  | MIC | <0.001 µg/mL |
| Cc1ccc(/C(Cn2ccnc2)=N/N=C(\N)c2ccccn2)cc1 | Isolate 685 |  | MIC | 0.5 µg/mL |
| CCN1CCN(C(=S)Nc2nc(N3CCN(CC)CC3)c3ccccc3n2)CC1 | MTCC 183 | agar / visual reading | MIC | 6.25 µg/mL |
| Cc1ccc(N2C(=O)CS/C2=N/NC(=O)c2cn3ccccc3n2)cc1 | ATCC 10231 | broth dilution | MIC | 32 µg/mL |
| CCN1CCN(c2nc(NC(=S)N3CCN(Cc4ccc(OC)c(OC)c4OC)CC3)nc3ccccc23)CC1 | MTCC 183 | agar / visual reading | MIC | 400 µg/mL |
| O=C(/C(=C1/SCCN1c1ccc(Cl)cc1)n1ccnc1)c1ccc(Cl)cc1 |  |  | MIC | >100 µg/mL |

9 of the rows above, restated:

| smiles | strain or isolate | read by | read-out | result |
|---|---|---|---|---|
| CCC(C)n1ncn(-c2ccc(N3CCN(c4ccc(OC[C@H]5CO[C@](Cn6cncn6)(c6ccc(Cl)cc6Cl)O5)cc4)CC3)cc2)c1=O | Isolate CA-11 |  | MIC | >8 µg/mL |
| C[C@@H](NC(=O)[C@@H](N)CCCCN)[C@@H](Cc1ccccc1)B1OC2CC3CC(C3(C)C)[C@@]2(C)O1 |  |  | MIC | ≤500 µg/mL |
| CCN1CCN(c2nc(NC(=S)N3CCN(C)CC3)nc3ccccc23)CC1 | MTCC 183 | agar / visual reading | MIC | 25 µg/mL |
| Cc1ccc2oc(/C(=N/O)c3ccc(Cl)cc3)c(C)c2c1 | Clinical isolate |  | MIC | 12.5 µg/mL |
| c1ccc(Nc2nnc(-c3cn4ccccc4n3)o2)cc1 | ATCC 10231 | broth dilution | MIC | 32 µg/mL |
| COc1ccc(-c2c(C#N)c(OC)nc3c2CSc2ccc(Cl)cc2-3)cc1O |  |  | MIC | 100 µg/mL |
| N#CC1=C(N)OC2=C(CSc3ccc(Cl)cc32)C1c1ccc2c(c1)OCO2 |  |  | MIC | 25 µg/mL |
| Clc1ccc(OCCC(Cn2ccnc2)c2ccc(Cl)cc2Cl)c(Cl)c1 |  |  | MIC | 100 µg/mL |
| C[C@H]1[C@H](O)[C@@H](C)/C=C/C=C/C=C/C=C/C=C/C=C/C=C/[C@H](O[C@@H]2O[C@H](C)[C@@H](O)[C@H](N)[C@@H]2O)C[C@@H]2O[C@](O)(C[C@@H](O)C[C@@H](O)CC[C@H](O)[C@@H](O)C[C@@H](O)CC(=O)O[C@H]1C)C[C@H](O)[C@H]2C(=O)O | ATCC 10231 | broth dilution | MIC | 0.5 µg/mL |

MIC50, MIC90 and the like: level of inhibition, or share of isolates inhibited. Lines come from different laboratories, so protocols vary. Blank or dashed fields: not listed here.